Experimental data: PubChem BioAssay AID1224833 (University of Georgia, 2016)

- Screen: 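Human genes whose knock-down alters rotavirus replication in monkey cells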 (primary screen)
- System: monkey MA104 kidney cells
- Reagents: siRNA pool against human genes, 50 nM
- Timing: 48 h knock-down before infection; read 24 h after infection
- Conditions: infection with rotavirus strain RV3 two days after transfection; infectious dose for this stage not given
- Read-out: 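z-score of rotavirus antigen signal per well, from a fluorescent immunoassay, relative to non-targeting control wells on the same plate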
- Direction: z-score vs non-targeting control: higher = more rotavirus replication than with non-targeting control
- Call rule: In these data the active calls have z-score vs non-targeting control at about -1 or lower, or at about 1 or higher
- Calls: active = z-score beyond 1 either way; inactive = z-score within 1 of zero
The whole screen tested about 12,000 reagents; below is a random part of them. About 5,600 of all reagents (46%) were called active. 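Active calls cover z-scores past 1 in both directions, so they include lowered as well as raised rotavirus replication.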 A number with no mark means an inactive call. Reagent sequences are not shown.

For PRPF3 [SID329576437], what was measured?
z-score vs non-targeting control: -0.519

With CNKSR2 [SID329577688], what does the deposit list?
z-score vs non-targeting control: -1.68 (active)

What did the screen give for CD58 [SID329573088]?
z-score vs non-targeting control: -0.413

What is on record for BDP1 [SID329579885]?
z-score vs non-targeting control: 1.01 (active)

How did the screen score RFC5 [SID329575114]?
z-score vs non-targeting control: 1.69 (active)

How did the screen score GARIN2 [SID329583192]?
z-score vs non-targeting control: -0.806

How did the screen score INCENP [SID329574165]?
z-score vs non-targeting control: 0.934

Which result is listed for WNT7A [SID329575815]?
z-score vs non-targeting control: -1.15 (active)

2 of these entries in another layout:
CNKSR2 [SID329577688]
- z-score vs non-targeting control: -1.68 (active)

CD58 [SID329573088]
- z-score vs non-targeting control: -0.413

Further results follow.
With ZNF317 [SID329580351], how do the results read?
z-score vs non-targeting control: -1.27 (active)

What did the screen give for KRTAP19-3 [SID329584013]?
z-score vs non-targeting control: -1.56 (active)

With RPLP0 [SID329575181], what was measured?
z-score vs non-targeting control: -1.09 (active)

For PEAR1 [SID329584245], how do the results read?
z-score vs non-targeting control: 1.31 (active)

For SLC7A10 [SID329580029], what does the deposit list?
z-score vs non-targeting control: 1.05 (active)

For SUB1 [SID329577428], how do the results read?
z-score vs non-targeting control: -1.79 (active)

For EDDM3A [SID329577399], what does the deposit list?
z-score vs non-targeting control: -1.64 (active)

For CREB3L2 [SID329580670], how do the results read?
z-score vs non-targeting control: -0.102

For ANKS1B [SID329580076], how do the results read?
z-score vs non-targeting control: -0.0936

For PEBP4 [SID329583125], what was measured?
z-score vs non-targeting control: 0.499

With MYOG [SID329574541], what does the deposit list?
z-score vs non-targeting control: 0.773
